In patent US9625458B2, “Biosensor” (priority 2002, dated 2017):
Where a chain is given by its changes, count along the chain named. Names and notes keep the numbering of the source.

B1: Glu/Asp BP F131C JPW4042 (conjugate, UniProt P37902 23-302, looked up, variant F131C)
Glutamate/aspartate import …: DDAAPAAGSTLDKIAKNGVIVVGHRESSVPFSYYDNQQKVVGYSQDYSNAIVEAVKKKLNKPDLQVKLIPITSQNRIPLLQNGTFDFECGSTTNNVERQKQAAFSDTICVVGTRLLTKKGGDIKDFANLKDKAVVVTSGTTSEVLLNKLNEEQKMNMRIISAKDHGDSFRTLESGRAVAFMMDDALLAGERAKAKKPDNWEIVGKPQSQEAYGCMLRKDDPQFKKLMDDTIAQVQTSGEAEKWFDKWFKNPIPPKNLNMNFELSDEMKALFKEPNDKALN
modifications: JPW4042 dye conjugate
B2: Glu/Asp BP G211C JPW4045 (conjugate, UniProt P37902 23-302, looked up, variant G211C)
Glutamate/aspartate import …: B1 Glutamate/aspartate import … with C109F, G189C
modifications: JPW4045 label
B3: Glu/Asp BP G211C Acrylodan (conjugate, UniProt P37902 23-302, looked up, variant G211C)
Glutamate/aspartate import …: B1 Glutamate/aspartate import … with C109F, G189C
modifications: acrylodan conjugate
B4: Glu/Asp BP F270C JPW4045 (conjugate, UniProt P37902 23-302, looked up, variant F270C)
Glutamate/aspartate import …: B1 Glutamate/aspartate import … with C109F, F248C
modifications: JPW4045 dye conjugate
B5: Glu/Asp BP F270C Fluorescein (conjugate, UniProt P37902 23-302, looked up, variant F270C)
Glutamate/aspartate import …: B1 Glutamate/aspartate import … with C109F, F248C
modifications: fluorescein conjugate
B6: Glu/Asp BP F270C Acrylodan (conjugate, UniProt P37902 23-302, looked up, variant F270C)
Glutamate/aspartate import …: B1 Glutamate/aspartate import … with C109F, F248C
modifications: acrylodan conjugate
B7: Glu/Asp BP F270C JPW4039 (conjugate, UniProt P37902 23-302, looked up, variant F270C)
Glutamate/aspartate import …: B1 Glutamate/aspartate import … with C109F, F248C
modifications: JPW4039 label
B8: Glu/Asp BP F131C Acrylodan (conjugate, UniProt P37902 23-302, looked up, variant F131C)
Glutamate/aspartate import …: B1 Glutamate/aspartate import …
modifications: Acrylodan label
B9: Glu/Asp BP F131C Fluorescein (conjugate, UniProt P37902 23-302, looked up, variant F131C)
Glutamate/aspartate import …: B1 Glutamate/aspartate import …
modifications: fluorescein conjugate
B10: Glu/Asp BP G211C JPW4039 (conjugate, UniProt P37902 23-302, looked up, variant G211C)
Glutamate/aspartate import …: B1 Glutamate/aspartate import … with C109F, G189C
modifications: JPW4039 dye conjugate
B11: Glu/Asp BP F131C NBD (conjugate, UniProt P37902 23-302, looked up, variant F131C)
Glutamate/aspartate import …: B1 Glutamate/aspartate import …
modifications: NBD conjugate
B12: Glu/Asp BP G211C JPW4042 (conjugate, UniProt P37902 23-302, looked up, variant G211C)
Glutamate/aspartate import …: B1 Glutamate/aspartate import … with C109F, G189C
modifications: JPW4042 dye label
B13: Glu/Asp BP F131C JPW4045 (conjugate, UniProt P37902 23-302, looked up, variant F131C)
Glutamate/aspartate import …: B1 Glutamate/aspartate import …
modifications: JPW4045 dye label
B14: Glu/Asp BP F270C NBD (conjugate, UniProt P37902 23-302, looked up, variant F270C)
Glutamate/aspartate import …: B1 Glutamate/aspartate import … with C109F, F248C
modifications: NBD conjugate
B15: Glu/Asp BP F270C JPW4042 (conjugate, UniProt P37902 23-302, looked up, variant F270C)
Glutamate/aspartate import …: B1 Glutamate/aspartate import … with C109F, F248C
modifications: JPW4042 dye label
B16: arabinose BP D257C NBD (conjugate, UniProt P02924 24-329, looked up, variant D257C)
L-arabinose-binding …: ENLKLGFLVKQPEEPWFQTEWKFADKAGKDLGFEVIKIAVPDGEKTLNAIDSLAASGAKGFVICTPDPKLGSAIVAKARGYDMKVIAVDDQFVNAKGKPMDTVPLVMMAATKIGERQGQELYKEMQKRGWDVKESAVMAITANELDTARRRTTGSMDALKAAGFPEKQIYQVPTKSNDIPGAFDAANSMLVQHPEVKHWLIVGMNDSTVLGGVRATEGQGFKAADIIGIGINGVDAVSELSKAQATGFYGSLLPSPCVHGYKSSEMLYNWVAKDVEPPKFTEVTDVVLITRDNFKEELEKKGLGGK
modifications: NBD label
B17: arabinose BP F23C JPW4039 (conjugate, UniProt P02924 24-329, looked up, variant F23C)
L-arabinose-binding …: B16 L-arabinose-binding … with F23C, C257D
modifications: JPW4039 label

Assay: Fluorescence emission spectra without and with saturating ligand (wavelength shift, ΔIstd, ΔRmax)
Conditions: for λmax,apo (nm) / λmax,sat (nm): emission maximum; for λmax,apo (nm): absence of ligand; for λmax,sat (nm): saturating ligand (ligand column); for ΔIstd: standard intensity change; for ΔIstd / ΔRmax: unbound vs ligand-saturated; for ΔRmax: standard ratiometric change
Outline: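 Emission spectra of bPBP–fluorophore conjugates (50–1000 nM protein, 25 °C, stirred) recorded without and with saturating ligand, using fluorophore-specific excitation. Wavelength shift, ΔIstd (intensity change at the mid-point wavelength) and ΔRmax (maximal ratiometric change over enumerated band pairs, 2 nm steps, 10 nm width) derived.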

Molecule | λmax,apo (nm) | λmax,sat (nm) | ΔIstd | ΔRmax
B1 | 650 | 643 | 0.06 | 0.68
B2 | 631 | 634 | 0.06 | 0.36
B3 | 493 | 492 | 0.02 | 0.29
B4 | 644 | 647 | 0.07 | 0.69
B5 | 523 | 523 | 0.04 | 0.21
B6 | 490 | 492 | 0.07 | 0.60
B7 | 596 | 594 | 0.01 | 0.11
B8 | 487 | 492 | 0.08 | 0.84
B9 | 522 | 522 | 0.05 | 0.13
B10 | 594 | 592 | 0.01 | 0.12
B11 | 539 | 541 | 0.01 | 0.10
B12 | 628 | 631 | 0.09 | 0.12
B13 | 649 | 642 | 0.02 | 0.48
B14 | 572 | 571 | 0.06 | 0.31
B15 | 640 | 645 | 0.08 | 0.14
B16 | 538 | 544 | 0.22 | 1.15
B17 | 587 | 588 | 0.93 | 0.76
